Results as given in ChEMBL document CHEMBL5537111, “Structure and function of SARS-CoV and SARS-CoV-2 main proteases and their inhibition: A comprehensive review” (Eur J Med Chem, 2023).

Columns and labels:
[1] = molecular target: Replicase polyprotein 1ab (Severe acute respiratory syndrome coronavirus 2, UniProt P0DTD1)
SARS-CoV-2 [2] = assay: microbe, parasite or virus in culture; details: Severe acute respiratory syndrome coronavirus 2, Vero C1008, 72 h
SARS-CoV-2 [3] = assay: microbe, parasite or virus in culture; details: Severe acute respiratory syndrome coronavirus 2, VeroE6/TMPRSS2, 48 h

Structure (SMILES): CCCC[C@H](NC(=O)[C@@H]1[C@@H]2[C@H](CN1C(=O)[C@@H](NC(=O)NC1(CS(=O)(=O)C(C)(C)C)CCCCC1)C(C)(C)C)C2(C)C)C(=O)C(=O)NC1CC1
- IC50 [1]: 2200 nM

Structure (SMILES): OCCN(CCO)c1nc(N2CCCCC2)c2nc(N(CCO)CCO)nc(N3CCCCC3)c2n1 [DIPYRIDAMOLE]
- EC50 (SARS-CoV-2 [2]): 100 nM

Structure (SMILES): COC[C@@H](NC(=O)C1CCCC(F)(F)C1)C(=O)N[C@H](Cc1ccccc1)C(=O)C(=O)NCc1nccs1 (stereo partly drawn) [SIMNOTRELVIR]
- EC50 (SARS-CoV-2 [3]): 384 nM
